Reference: US6380194B1 (Janssen Pharmaceutica N.V., priority 1996, dated 2002)

system: HIV-1; assay: Inhibition of HIV-induced cytopathic effect in MT-4 cells (MTT); format: cell-based; settings: selectivity index, ratio of CC50 to IC50
Protocol: A rapid, sensitive and automated assay procedure was used for the in vitro evaluation of anti-HIV agents. An […] T4-cell line, MT-4, which was previously shown (Koyanagi et al., Int. J. Cancer, 36, 445-451, 1985) to be highly susceptible to and permissive for HIV infection, served as the target cell line. Inhibition of the HIV-induced cytopathic effect was used as the end point. The viability of both HIV- and mock-infected cells was assessed spectrophotometrically via the in situ reduction of 3-(4,5-dimethylthiazol-2-yl)-2,5-diphenyltetrazolium bromide (MTT). The 50% cytotoxic concentration (CC50 in μM) was defined as the concentration of compound that reduced the absorbance of the mock-infected control sample by 50%. The percent protection achieved by the compound in HIV-infected cells was calculated by the following formula: [formula]
whereby (ODT)HIV is the optical density measured with a given concentration of the test compound in HIV-infected cells; (ODC)HIV is the optical density measured for the control untreated HIV-infected cells; (ODC)MOCK is the optical density measured for the control untreated mock-infected cells; all optical density values were determined at 540 nm. The dose achieving 50% protection according to the above formula was defined as the 50% inhibitory concentration (IC50 in μM). The ratio of CC50 to IC50 was defined as the selectivity index (SI).

Compound | SI
N#Cc1ccc(Nc2nc(Cc3c(Cl)cccc3Cl)nc(NCC(O)CO)n2)cc1 (racemic) [Compound 26, (±)-4-[[4-[(2,6-dichlorophenyl)methyl]-6-[(2,3-dihydroxypropyl)amino]-1,3,5-triazin-2-yl]amino]benzonitrile] | 883
N#Cc1ccc(Nc2nc(Cc3c(Cl)cccc3Cl)nc(NC(CCO)C(N)=O)n2)cc1 (racemic) [Compound 34, (±)-2-[[4-[(4-cyanophenyl)amino]-6-[(2,6-dichlorophenyl)amino]-6-[(2,6-dichlorophenyl)methyl]-1,3,5-triazin-2-yl]amino-4-hydroxybutanamide] | 746
CCO.Cl.N#Cc1ccc(Nc2nc(N)nc(C(CC3CC3)c3c(Cl)cccc3Cl)n2)cc1 (racemic) [Compound 61] | 7
CC(=N)Nc1nc(Cc2c(Cl)cccc2Cl)nc(Nc2ccc(C#N)cc2)n1 [Compound 28] | >37037
COC(=O)CN(c1ccc(C#N)cc1)c1nc(N)nc(Cc2c(Cl)cccc2Cl)n1 [Compound 39] | >256
COc1cccc(Cc2nc(N)nc(Nc3ccc(C#N)cc3)n2)c1 [Compound 47] | >243
CCOc1cccc(Cc2nc(N)nc(Nc3ccc(C#N)cc3)n2)c1 [Compound 48] | >269
